Compound potency records, mixed from different reports. Data source: NIAID ChemDB in PubChem.

Common to all: whole-cell or culture tests

ECn is the concentration giving n% inhibition of infection, replication or growth. Blank or dashed fields: not listed here. Lines come from different laboratories, so protocols vary. MIC50, MIC90 and the like: level of inhibition, or share of isolates inhibited.

SMILES,organism,measure,strain or isolate,read by,result
Cc1c(N2CCC3(CCC[C@@H]3N)C2)c(F)cn2c(=O)c(C(=O)O)cc(C3CC3)c12,Enterococcus faecium,MIC,ATCC 8043,-,0.1 µg/mL
NC1[C@H]2CN(c3nc4c(cc3F)c(=O)c(C(=O)O)cn4-c3ccc(F)cc3F)C[C@@H]12,Enterococcus faecium,MIC,21 strains (vancomycin-susceptible),-,1 µg/mL
CCC(C)C(=O)C1=C(O)C(C)(C)C(=O)C(C)(C)C1=O,Enterococcus faecalis,MIC,Vancomycin-resistant,-,125 µg/mL
CSCC[C@H](N)C1CCN(c2c(F)cn3c(=O)c(C(=O)O)cc(C4CC4)c3c2C)C1,Enterococcus faecium,MIC,ATCC 8043,-,0.01 µg/mL
Cc1c(N2CCC(C(N)C3CC3)C2)c(F)cn2c(=O)c(C(=O)O)cc(C3CC3)c12,Enterococcus faecium,MIC,ATCC 8043,-,0.05 µg/mL
CC(C)=CCC1(CC=C(C)C)C(=O)C(C(=O)C(C)C)=C(O)C(CC=C(C)C)(CC=C(C)C)C1=O,Enterococcus faecalis,MIC,Vancomycin-resistant,-,125 µg/mL
CN(C)[C@@H]1C(=O)C(C(N)=O)=C(O)[C@@]2(O)C(=O)C3=C(O)c4c(O)c(NC(=O)CNC(F)(F)F)cc(F)c4C[C@H]3C[C@@H]12,Enterococcus faecalis,EC50,103-29212,agar diffusion,2 µg/mL
Cc1c(N2Cc3cccnc3C2)c(F)cn2c(=O)c(C(=O)O)cc(C3CC3)c12,Enterococcus faecium,MIC,ATCC 8043,-,0.05 µg/mL
Cc1c(N2CCC(C3(N)CCCCC3)C2)c(F)cn2c(=O)c(C(=O)O)cc(C3CC3)c12,Enterococcus faecium,MIC,ATCC 8043,-,0.1 µg/mL
COC[C@H](N)C1CCN(c2c(F)cn3c(=O)c(C(=O)O)cc(C4CC4)c3c2C)C1,Enterococcus faecium,MIC,ATCC 8043,-,0.005 µg/mL
CCCCCCCCCC(=O)C1=C(O)C(C)(C)C(=O)C(C)(C)C1=O,Enterococcus faecalis,MIC,Vancomycin-resistant,-,4 µg/mL
CC[C@H](N)C1CCN(c2c(F)cn3c(=O)c(C(=O)O)cc(C4CC4)c3c2C)C1,Enterococcus faecium,MIC,ATCC 8043,-,0.01 µg/mL
CC1(C)C(=O)C(C(=O)C2CCCCC2)=C(O)C(C)(C)C1=O,Enterococcus faecalis,MIC,Vancomycin-resistant,-,125 µg/mL
Cc1c(N2CCC(C(C)(C)N)C2)c(F)cn2c(=O)c(C(=O)O)cc(C3CC3)c12,Enterococcus faecium,MIC,ATCC 8043,-,0.05 µg/mL
CCC1(CC)C(=O)C(C(=O)CCc2ccccc2)=C(O)C(CC)(CC)C1=O,Enterococcus faecalis,MIC,Vancomycin-resistant,-,31 µg/mL
CC1COc2c(N3CCN(C)CC3)c(F)cc3c(=O)c(C(=O)O)cn1c23,Enterococcus faecium,MIC50,10 strains,-,2 µg/mL

For reference, 2 entries again:

{"SMILES": "NC1[C@H]2CN(c3nc4c(cc3F)c(=O)c(C(=O)O)cn4-c3ccc(F)cc3F)C[C@@H]12", "organism": "Enterococcus faecium", "measure": "MIC", "strain or isolate": "21 strains (vancomycin-susceptible)", "result": "1 µg/mL"}
{"SMILES": "CN(C)[C@@H]1C(=O)C(C(N)=O)=C(O)[C@@]2(O)C(=O)C3=C(O)c4c(O)c(NC(=O)CNC(F)(F)F)cc(F)c4C[C@H]3C[C@@H]12", "organism": "Enterococcus faecalis", "measure": "EC50", "strain or isolate": "103-29212", "read by": "agar diffusion", "result": "2 µg/mL"}